Anti-infective test results gathered from many reports (values: NIAID ChemDB through PubChem).

All rows: cytotoxicity tests; cell line: MT-2; method: MTT; measure: CC50

Rows are shuffled and stem from different studies. Two numbers with a dash give a range or band. CCn: concentration that lowers growth or viability of the cells by n%.

| compound | value |
|---|---|
| Cc1cccc(Cl)c1CN1CCc2cc(-c3cnc(C)c([C@H](OC(C)(C)C)C(=O)O)c3N3CCC(C)(C)CC3)ccc2C1 | ≥19.5 µM |
| COc1ccc2c(c1)[C@@H](N1CCCC1=O)C[C@@H](c1cccc(N)c1)N2 | 103 µM |
| CC(=O)O[C@H]1CC[C@@H](O)CC[C@@H](C)/C=C/[C@@]2(C)CC[C@@H](C(C)(C)OC(C)=O)[C@H]12 | 1345–1456 µM |
| Cc1cc(C)c2c(c1)N[C@H](c1cccc(N)c1)C[C@@H]2N1CCCC1=O | >50 µM |
| CC1=CC2C(=O)c3cc(O)cc(O)c3C(=O)C2C(O)=C1 | 70 µM |
| Cc1cc2cc(C#N)cn2c(C)c1Nc1ccnc(Nc2ccc(C#N)cc2)n1 | 8.5 µM |
| C=C1CC[C@@H](OC(C)=O)[C@@]2(C)C[C@@H](OC(C)=O)C3=C(C(C)C)CC[C@]3(C)C[C@]12O | 1910 µM |
| CC1=CC2C(=O)c3cc(OCC(=O)c4ccccc4)c(Br)c(O)c3C(=O)C2C(O)=C1 | 100 µM |
| Cc1cn([C@H]2C[C@H](N=[N+]=[N-])[C@@H](CO)O2)c(=O)[nH]c1=O | 70 µM |
| C[C@H]1/C=C/[C@@]2(C)CC[C@@H](C(C)(C)O)[C@@H]2[C@@H](O)C[C@](C)(O)/C=C/C1 | 1345–1456 µM |
| COc1ccc(OC)c(CCNC(=S)Nc2ccccn2)c1 | 84.7 µM |
| COc1ccc(C2SCC(=O)N2c2ccc(S(N)(=O)=O)cc2)cc1 | ≥182 µM |
| CC(=O)Oc1c(OCC(=O)c2ccc(Br)cc2)ccc2c1C(=O)c1ccccc1C2=O | >100 µM |
| Cc1cc(C#CCOCCOCCOCC#Cc2cn(C3C=CC(COP(=O)(O)O)O3)c(=O)[nH]c2=O)cc(C)c1Oc1ccnc(Nc2ccc(C#N)cc2)n1 | ~1.8 nM |
| Cc1cc2nc(-c3cccc([N+](=O)[O-])c3)ccc2c(C)c1C | >50 µM |
| COc1cccc(OC)c1C1SCC(=O)N1c1ncccc1C | >25 µM |
| CN(c1nnc(Nc2ccc(C#N)cc2)o1)c1c(Cl)cccc1Cl | >100 µM |
| Nc1ccc(C2SCC(=O)N2c2ccc(Cl)cc2)cc1 | ≥154.6 µM |
| N#Cc1cc(Cl)cc(Oc2ccc(Cl)cc2OCCn2cc(F)c(=O)[nH]c2=O)c1 | 13 µM |
| NS(=O)(=O)c1ccc(NC(=S)NCCc2ccccc2F)cc1 | ≥100 µM |
| N#Cc1nc(Cc2cccc3ccccc23)oc1NC[C@H]1CCCO1 | 37 µM |
| CC(=O)NS(=O)(=O)c1ccc(NC(=S)NCCc2ccccc2F)cc1 | 37 µM |
| Clc1ccc(Cc2nnc(Cc3c(Cl)cccc3Cl)o2)cc1 | 43 µM |
| COc1ccc(OC)c(C2SCC(=O)N2c2ccccn2)c1 | >3 µM |
| N#Cc1cc(Cl)cc(Oc2cc(Cl)ccc2OCCn2ccc(=O)[nH]c2=O)c1 | 32 µM |
| Clc1cc(Cl)cc(Nc2nnc(Cc3c(Cl)cccc3Cl)s2)c1 | 64 µM |
| O=c1nccc(NC(=S)NCCc2ccccc2)[nH]1 | >100 µM |
| N#Cc1ccc(Oc2cc(Cl)ccc2Cl)c(OCCn2ccc(=O)[nH]c2=O)c1 | 59 µM |
| CC(=O)Oc1c(OCC(=O)c2ccccc2)ccc2c1C(=O)c1ccccc1C2=O | ~40 µM |
| Cc1cccc(NC(=S)NCCc2ccccc2F)n1 | >60 µM |

2 of the rows above, restated:

compound	value
CC(=O)O[C@H]1CC[C@@H](O)CC[C@@H](C)/C=C/[C@@]2(C)CC[C@@H](C(C)(C)OC(C)=O)[C@H]12	1345–1456 µM
CC(=O)Oc1c(OCC(=O)c2ccccc2)ccc2c1C(=O)c1ccccc1C2=O	~40 µM